The values are deposited in ChEMBL (CHEMBL3988442, “University of Dundee, Small-Polar-MMV Screening Library” (2021)).

Each number is a percent effect as filed. The controls that fix the scale are not given in the record; negative values are as filed. This is part of a subset picked to be rich in strong results. A dash means the value is not listed here; it may have been measured.

A: 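Growth of Mycobacterium tuberculosis over 4 days (cholesterol / DPPC medium with tyloxapol); the read-out is not stated. Concentration: 500 µM. Higher reads as more growth inhibition (inferred: compounds with an IC50 in retests scored well above the rest). Of about 18,000 compounds tested this way, about 900 (5%) reached 50% or more in at least one test.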
B: 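Growth of Mycobacterium tuberculosis over 3 days (7H9 medium with glucose and tyloxapol); the read-out is not stated. Tested at 500 µM. The record gives no direction; compounds that gave an IC50 in retests scored well above the rest, so higher reads as more growth inhibition. About 18,000 compounds were tested under these conditions; 7.9% (about 1,400) showed 50% or more at least once.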

compound	A	B
Cc1cc(CN(C)C(=O)C2CCCCCN2C)no1 (configuration not stated)	-	10.4
Cn1cc([C@@H]2C[C@H]2N)cn1	1.561	-
CCc1cnc(NC(=O)N2CCC(O)C2)s1 (configuration not stated)	4.273	-
NC(=O)CSc1nnc(-c2ccco2)o1	-	3.765
O=C1CCCCC1c1ccoc1 (configuration not stated)	-	-21.83
CN(Cc1ccsc1)C(=O)c1nccnc1N	-	20.96
Cc1ccc(S(=O)(=O)NCc2ncc[nH]2)cc1	-	23.58
CN1CCCN(C(=O)c2cc3ccccc3[nH]2)CC1	4.203	15.14
O=C(c1ccco1)N1CCCC1c1ccco1 (configuration not stated)	-19.42	-
Cc1ccnc(NCC2CCN(CCS(C)(=O)=O)C2)c1 (configuration not stated)	-6.392	1.067
CC(=O)Nc1cc(Br)cnc1NC(C)=O	-	5.191
CCOc1ccc(C(=O)n2cnnc2N)cc1	9.363	-
CC(C)NC(=O)NC(=O)C(C)N1CCC(O)CC1 (configuration not stated)	-0.6748	-
CN1C(=O)CC(Nc2ccc3c(c2)CCC3)C1=O (configuration not stated)	8.34	-
O=C(COC(=O)CN1CCCC1=O)NCc1cccs1	-	-7.538
O=C(Cc1ccccc1F)NCCNc1ncccn1	-0.01274	-
Cc1ccc(C(O)c2cccnc2)cc1 (configuration not stated)	37.59	57.19
COc1ccc(C(O)CNC(=O)Nc2nncs2)cc1 (configuration not stated)	-	79.52
O=C(CNC1CC1)NC[C@H]1CCc2ccccc2O1	54.65	68.44
CC(=O)c1c[nH]c(C(=O)Nc2nnc(C)s2)c1	-	-10.14
CN(C)c1cc(C(=O)Nc2nccs2)ccn1	-0.3828	-
Cn1ccc(C(=O)NCc2cccs2)cc1=O	-	8.468
COCc1nn(CCC2CCCC2)c(=O)o1	85.2	72.38
COCCN(c1ccncc1)S(=O)(=O)c1cccs1	-	5.186
Cc1ccc(C(=O)N2CCCN(C)CC2)nc1	-4.819	-
CC(C(=O)NCCc1ccc(O)cc1)n1cccn1 (configuration not stated)	-	10.38
COc1ccc2c(c1)C(N)CCN2 (configuration not stated)	-	-0.7744
c1nnc(C2CC2)n1C1CCNCC1	-	1.87
CNc1nc(C)cc(C(=O)NC(C)c2ncon2)n1 (configuration not stated)	-	12.84
O=C(NCCCc1ncc[nH]1)[C@H]1CCC[C@H](O)C1	-	-5.329
CCOC(=O)CNS(=O)(=O)c1c(C)ccc2nsnc12	-	21.85
CCc1ncc(CN(C)C(=O)c2nccnc2N)s1	-	36.26
O=C(CN1CCOCC1)c1nccs1	-	-31.7
CSc1ccccc1NC(=O)CCn1cnc(C#N)n1	61.22	-
CNCC1CCN(C(=O)c2cc(Br)c[nH]2)C1 (configuration not stated)	42.08	45.74
Cc1c(Cl)cccc1C(=O)N(C)[C@H](C)C(N)=O	8.419	-
CCc1nccc(CN2CCC(NC(C)=O)C2)n1 (configuration not stated)	-	-9.606
Cc1n[nH]c(C)c1C(N)C(=O)NCCc1ccnn1C (configuration not stated)	-5.348	-
CCC(CO)(CO)NCc1csc(-c2cccs2)n1	63.42	63.5
CCc1nc(CCN)cs1	79.77	82.58
CN(C(=O)COCC(F)(F)F)C1CCS(=O)(=O)C1 (configuration not stated)	-	-0.4097
Cc1ccc(CC(=O)N2CCC3(CC2)OCCO3)cn1	-	32.43
CN(C)Cc1ccccc1CNC(=O)C1CC1	-	-1.278
COc1ccc(OC)c(CNc2nc(C)nn2C)c1	64.88	79.23
Cc1ccc(S(N)(=O)=O)cc1N(C)C	-	-4.065
O=C(NCc1ccccn1)n1ccnc1	-87.56	-
CCOC(=O)c1cccnc1NCc1cnn(C)c1C	64.56	64.5
NC(=O)C1CCN(c2ccnc3ccc(Cl)cc23)C1 (configuration not stated)	-	-4.565
COCCN1CCCN(C(=O)c2csc(Br)c2)CC1	-	26.01
NCC1CCCCN(Cc2ccccc2)C1 (configuration not stated)	-2.776	-
CNCCCC(=O)Nc1ccccc1	2.413	-
CCOC(=O)Cc1nc2nc(C)cc(C)n2n1	-	7.134
CC(NCCn1cc(Br)cn1)c1ccncc1 (configuration not stated)	-	9.82
CC(C)C(C(=O)Nc1ccc(CCO)cc1)N(C)C (configuration not stated)	15.47	-
NC(=O)C[C@@H](N)c1ccc(F)cc1	-	2.751
CSc1ccc(CN)cc1	10.12	16.02
Clc1ccc2nnc(C3CCCO3)n2n1 (configuration not stated)	-	28.27
CCNCc1cc(Cl)c(OCC(N)=O)c(OC)c1	11.49	10.84
COCc1nc(CN(C)CC2COCCO2)no1 (configuration not stated)	-	8.818
N#Cc1cc(Br)ccn1	-	-7.272
CN(CC(=O)Nc1ccc2oc(=O)[nH]c2c1)C1CC1	-5.413	-
COc1cc(CN)cc(Br)c1O	-	5.312
COCC(C)Nc1ccccc1CN1C(=O)CCC1=O (configuration not stated)	-	24.47
O=C(CCC(F)(F)F)Nc1ccc2[nH]nnc2c1	24.48	-
Cc1cc(N2CCN(C)CC2)n2ncnc2n1	0.9144	6.204
CCc1cccc(NC(N)=O)c1	-	12.09
Cc1nonc1OCCNC(=O)C1CCCCCN1C (configuration not stated)	-	9.307

The last 5 entries again:

compound	A	B
COCC(C)Nc1ccccc1CN1C(=O)CCC1=O (configuration not stated)	-	24.47
O=C(CCC(F)(F)F)Nc1ccc2[nH]nnc2c1	24.48	-
Cc1cc(N2CCN(C)CC2)n2ncnc2n1	0.9144	6.204
CCc1cccc(NC(N)=O)c1	-	12.09
Cc1nonc1OCCNC(=O)C1CCCCCN1C (configuration not stated)	-	9.307